Measurements reported in patent US20130137126A1, “USE OF A BETA-G[…] FOR THE DETECTION AND/OR IDENTIFICATION OF C. DIFFICILE” (BIOMERIEUX, priority 2010, published 2013).

Test system: Clostridium difficile
Experiment: Activating effect of arbutin on various beta-glucosidase substrates, colony coloration on agar media
Type: cell-based
Protocol: The eight strains of Clostridium difficile tested in Example 1 were tested on media comprising DHF-beta-glucoside (media A), alizarin-beta-glucoside (media B) or 3HF-beta-glucoside (Media C) and an increasing concentration of arbutin.
The reading of the dishes is then carried out at 24 h and 48 h.
The media used are prepared on the basis of the C. difficile chromID® medium indicated supra, for example 1, to which arbutin is added according to the following table:
According to the substrates, the media are therefore as follows: • DHF-beta-glucoside at 400 mg/L (media TA, 1A, 2A and 3A) • Alizarin-beta-glucoside at 50 mg/L (media TB, 1 B, 2B and 3B) • 3HF-beta-glucoside at 300 mg/L (media TC, 1C, 2C and 3C)
The media are distributed into Petri dishes.
The seeding is performed from 48 h pre-cultures at 37° C. in anaerobiosis.
A suspension in physiological water at 0.5 McF is carried out and then the strains are seeded with the 10 μl calibrated loop.
Readings are performed after 24 h and 48 h of incubation at 37° C. in anaerobiosis.
Reading scale of the enzymatic activity/ coloration • 0=no activity • 0.5=very pale coloration • 1=clear low-intensity coloration • 2=distinct medium-intensity coloration, • 3=presence of an intense coloration, • 4=presence of a very intense coloration.

OC[C@H]1O[C@@H](Oc2ccc(O)cc2)[C@H](O)[C@@H](O)[C@@H]1O [Arbutin, hydroquinone-beta-D-glucoside]
ideal concentration of arbutin (with DHF-beta-glucoside and 3HF-beta-glucoside): ~1 g/L | ideal concentration of arbutin (with alizarin-beta-glucoside): ~0.5 g/L
